Data from patent publication US20060121449A1, “Method for selection of compounds which inhibit clonal cell growth and use thereof” (priority 2002, published 2006).

Test system: Ehrlich ascites tumour
Conditions: Exp 18

## CCCCC1(O)C(=O)N(c2ccccc2)N(c2ccc(O)cc2)C1=O (centres unmarked) [4-OH-OPB, 4-butyl-4-hydroxy-2(p-hydroxyphenyl)-1-phenyl-3,5-pyrazolidinedione]
At killing
  organs, findings on section: tumour in left side of abdominal wall. Normal organs.
At killing (mouse 1 day 14, mice 2 and 3 day 16), control 37.3
  Animal weight on section: 38.9 g
